Sequence variants of PSTVd loop 15 after infection

PSTVd intermediate strain, loop 15: wild type GGAAACCGCUACUAC, pool pattern GGAAACCGNNNNNNC; upper and lower strand joined, each 5' to 3', the first 7 letters being the upper strand, closing pairs included.

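Three N. benthamiana plants were inoculated with the whole mutant pool. Samples came from the inoculated region at 5 days, the leaf margin at 10 and upper systemic leaves at 12.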

Values are reads per thousand in the sample; higher means more abundant, 0 means not found.
Each value is the mean of three plants.
"Pool" is the share in the plasmid pool used as inoculum, on the same scale.
The inoculated region was read from the minus strand, the other sites from the plus strand.
Samples held 43,870 to 66,106 reads, so the smallest values rest on one or two reads.
Wild type was 33.9 per thousand in the pool and the most common sequence in every sample (inoculated region 202, 200, 159; leaf margin 724, 746, 710; systemic leaves 856, 883, 880).
The authors trace changes outside the varied positions to PCR and sequencing errors or to mutation in the plant; presence does not show that a variant is infectious alone.

sequence | pool | inoculated region | leaf margin | systemic leaves
GGAAACCGGCACCUC | 0.176 | 0.0912 | 0.00539 | 0
GGAAACCGCGGUUGC | 0.192 | 0.138 | 0.0202 | 0.00537
GGAAACCGGCAUUUC | 0.240 | 0.272 | 0.0965 | 0.0670
GGAAACCGUCUAAAC | 0.272 | 0.0740 | 0.703 | 0
GGAAACCGGUGCACC | 0.144 | 0.0569 | 0.00742 | 0
GGAAACCGCCGGGAC | 0.112 | 0.574 | 0.130 | 0.00537
GGAAACCGUAAUCGC | 0.272 | 0.0750 | 0.00668 | 0
GGAAACCGAGGCAUC | 0.320 | 0.0633 | 0.0141 | 0
GGAAACCGGUCGCUC | 0.0960 | 0.103 | 0.00539 | 0
GGAAACCGUAUAGCC | 0.192 | 0.146 | 0.0141 | 0.00537
GGAAACCGUAACGAC | 0.224 | 0.0684 | 0.0134 | 0
GGAAACCGUAGCCGC | 0.176 | 0.111 | 0 | 0
GGAAACCGCCCGGAC | 0.256 | 0.231 | 0.150 | 0.00537
GGAAACCGAAUCACC | 0.336 | 0.0795 | 0.0187 | 0
GGAAACCGCGUAUUC | 0.176 | 0.113 | 0.0187 | 0
GGAAACCGUAUACAC | 0.192 | 0.0959 | 0 | 0
GGAAACCGAACUCGC | 0.144 | 0.0857 | 0 | 0.00537
GGAAACCGUUGCCUC | 0.144 | 0.0902 | 0 | 0
GGAAACCGCGUACGC | 0.144 | 0.141 | 0 | 0
GGAAACCGUGGCGAC | 0.224 | 0.0642 | 0.0108 | 0
GGAAACCGCUCUAAC | 0.240 | 0.147 | 0.0128 | 0.0104
GGAAACCGUCACUGC | 0.0800 | 0.292 | 0.0813 | 0.0509
GGAAACCGUCUACAC | 0.288 | 0.0914 | 0.00742 | 0.00760
GGAAACCGCCUUAUC | 0.256 | 0.0991 | 0.0303 | 0
GGAAACCGGACGUCC | 0.192 | 0.0909 | 0.00539 | 0
GGAAACCGCCGCCUC | 0.0640 | 0.0920 | 0.0121 | 0
GGAAACCGCCAUUAC | 0.336 | 0.451 | 0.0954 | 0.0388
GGAAACCGUUAACAC | 0.128 | 0.319 | 0.106 | 0.0676
GGAAACCGCGACGAC | 0.160 | 0.0741 | 0.0223 | 0.0366
GGAAACCGUAUUGGC | 0.192 | 0.102 | 0 | 0.00537
GGAAACCGAUCCGCC | 0.320 | 0.0902 | 0.00668 | 0
GGAAACCGUGCGACC | 0.144 | 0.106 | 0.0134 | 0
GGAAACCGGGUUAAC | 0.240 | 0.0460 | 0.00668 | 0
GGAAACCGCUGGUCC | 0.224 | 0.119 | 0.0208 | 0
GGAAACCGCCAGCCC | 0.208 | 0.101 | 0.0108 | 0
GGAAACCGAGCUCAC | 0.192 | 0.130 | 0.0121 | 0
GGAAACCGCCCUUUC | 0.176 | 0.292 | 0.138 | 0.0107
GGAAACCGACCAUUC | 0.240 | 0.381 | 0.106 | 0.00760
GGAAACCGAGACUGC | 0.192 | 0.277 | 0.105 | 0.0322
GGAAACCGCAUGGCC | 0.208 | 0.104 | 0.00742 | 0

Reference: Wu et al. 2024, doi:10.1371/journal.ppat.1012142.